Compound potency records, mixed from different reports. Data source: NIAID ChemDB in PubChem.

Shared fields: tests in culture; species: Herpes simplex virus 1; cell line: VERO; measure: EC50

Lines come from different laboratories, so protocols vary.

Cn1cc(C(=O)NCc2ccc(Cl)cc2)c(=O)c2cc(CN3CCOCC3)ccc21 ; strain or isolate: KOS ; method: plaque count ; value: 3.3 µM
Nc1nc2c(ncn2CCCC(CO)CO)c(=O)[nH]1 ; strain or isolate: 7935-72 ; method: plaque count ; value: 0.2 µM
O=c1[nH]c(=O)n([C@H]2C[C@H](O)[C@@H](CO)O2)cc1/C=C/Br ; strain or isolate: F-AMAU-C2 ; method: plaque count ; value: 280 µM
Nc1nc2c(ncn2COCCO)c(=O)[nH]1 ; strain or isolate: 7401H ; method: plaque count ; value: 0.2 µg/mL
Cc1cn([C@@H]2O[C@H](CO)[C@@H](O)[C@@H]2F)c(=O)[nH]c1=O ; strain or isolate: F-ACV-C4 ; method: plaque count ; value: 12 µM
Nc1nc2c(ncn2CC(CO)CCO)c(=O)[nH]1 ; strain or isolate: C42 (acyclovir-resistant) ; method: plaque count ; value: 60 µM
Nc1ccn([C@@H]2O[C@H](CO)[C@@H](O)[C@H]2F)c(=O)n1 ; strain or isolate: 2931 ; method: plaque count ; value: <0.1 µg/mL
O=c1[nH]c(=O)n([C@H]2C[C@H](O)[C@@H](CO)O2)cc1/C=C/Br ; strain or isolate: KOS ; method: plaque count ; value: 2.1 µM
Nc1nc2c(ncn2CCC(O)CO)c(=O)[nH]1 ; strain or isolate: C42 ACV-R ; method: plaque count ; value: >200 µM
COc1nsc(-c2ccccc2)c1C#N ; strain or isolate: F strain ; method: plaque count ; value: >25 µM
O=C(Nc1ccc(NC(=S)Nc2cc3ccccc3o2)cc1)c1nccc2ccccc12 ; method: ELISA ; value: >10 µg/mL
Nc1nc(=O)n([C@@H]2O[C@H](CO)[C@@H](O)[C@@H]2F)cc1F ; strain or isolate: 2931 ; method: plaque count ; value: <0.1 µg/mL
CC(=O)N[C@@H]1[C@@H](O)[C@H](O)[C@@H](CO)O[C@H]1N[C@H]1[C@H](O)[C@@H](C(=O)O)OC(OC2CC[C@@]3(C)C(CC[C@]4(C)C3C(=O)C=C3C5C[C@@](C)(C(=O)O)CC[C@]5(C)CC[C@]34C)C2(C)C)[C@@H]1OC1O[C@H](O)[C@@H](O)[C@H](O)[C@H]1C(=O)O ; method: cytopathic effect ; value: 4 µg/mL
O=c1ccn([C@@H]2O[C@H](CO)[C@@H](O)[C@@H]2F)c(=O)[nH]1 ; strain or isolate: F-FAU-C2 ; method: plaque count ; value: 49 µM
O=c1[nH]c(=O)n([C@H]2C[C@H](O)[C@@H](CO)O2)cc1I ; strain or isolate: 2931 ; method: plaque count ; value: <10 µg/mL
CSc1nsc(C)c1C#N ; strain or isolate: F strain ; method: plaque count ; value: >100 µM
Nc1ncnc2c1ncn2[C@@H]1C[C@H](CO)[C@@H](O)[C@@H]1O ; strain or isolate: F-AMAU-C2 ; method: plaque count ; value: 60 µM
Nc1nc(=O)n([C@@H]2O[C@H](CO)[C@@H](O)[C@@H]2F)cc1I ; strain or isolate: 2931 ; method: plaque count ; value: <0.01 µg/mL
CC(C1=NNC(=Nc2ccccc2)SC1)N1C(=O)c2ccc(Br)cc2C1=O ; strain or isolate: VR733 ; method: cytopathic effect ; value: >111 µg/mL
CSc1nsc(-c2ccc(OS(=O)(=O)c3ccc(C)cc3)cc2)c1C#N ; strain or isolate: F strain ; method: plaque count ; value: >25 µM
O=c1[nH]c(=O)n([C@@H]2O[C@H](CO)[C@@H](O)[C@@H]2F)cc1I ; strain or isolate: 2931 ; method: plaque count ; value: <0.1 µg/mL
CC(C1=NNC(=Nc2ccccc2F)SC1)N1C(=O)c2ccccc2C1=O ; strain or isolate: VR733 ; method: cytopathic effect ; value: >12.34 µg/mL
O=c1[nH]c(=O)n([C@@H]2O[C@H](CO)[C@@H](O)[C@@H]2F)cc1F ; strain or isolate: 2931 ; method: plaque count ; value: <0.1 µg/mL
O=C1c2ccccc2C(=O)N1CCC1=NNC(=Nc2ccccc2)SC1 ; strain or isolate: VR733 ; method: cytopathic effect ; value: >111 µg/mL
Nc1nc2c(ncn2C[C@]2(CO)C[C@H]2CO)c(=O)[nH]1 ; strain or isolate: TK- ; method: cytopathic effect ; value: ≥70 µg/mL
Cc1cn([C@@H]2O[C@H](CO)[C@@H](O)[C@@H]2O)c(=O)[nH]c1=O ; strain or isolate: 2931 ; method: plaque count ; value: <1 µg/mL
CSc1nsc(-c2cccnc2)c1C#N ; strain or isolate: F strain ; method: plaque count ; value: >20 µM
CC(C1=NNC(=Nc2ccc(F)cc2)SC1)N1C(=O)c2ccccc2C1=O ; strain or isolate: VR733 ; method: cytopathic effect ; value: >37.03 µg/mL
Cc1nc(N(C)C(=O)Cc2ccc(-c3ccccn3)cc2)sc1S(N)(=O)=O ; strain or isolate: KT1 ; method: plaque count ; value: 0.03 µM
CCc1cn([C@H]2C[C@H](O)[C@@H](CO)O2)c(=O)[nH]c1=O ; strain or isolate: F-AMAU-C2 ; method: plaque count ; value: >200 µM
O=C(Nc1ccccc1NC(=S)NCCOc1cccc(Cl)c1)c1ccccc1F ; method: ELISA ; value: 10 µg/mL
Nc1nc(=O)n([C@@H]2O[C@H](CO)[C@@H](O)[C@@H]2F)cc1Br ; strain or isolate: 2931 ; method: plaque count ; value: <0.1 µg/mL
Nc1nc2c(ncn2CCCCO)c(=O)[nH]1 ; strain or isolate: 793-72 ; method: plaque count ; value: 2 µM
CC(=O)N(C1=NN=C(C(C)N2C(=O)c3ccccc3C2=O)CS1)c1ccccc1 ; strain or isolate: VR733 ; method: cytopathic effect ; value: >37.04 µg/mL

For reference, 2 entries again:

| structure | strain or isolate | method | value |
|---|---|---|---|
| O=c1[nH]c(=O)n([C@H]2C[C@H](O)[C@@H](CO)O2)cc1/C=C/Br | F-AMAU-C2 | plaque count | 280 µM |
| Nc1nc2c(ncn2CCCCO)c(=O)[nH]1 | 793-72 | plaque count | 2 µM |

ECn: concentration that inhibits the pathogen or its effect by n%.